Here are results for 54 compounds from patent publication US6124354A, “Arylcycloalkane carboxylic esters, their use, pharmaceutical compositions and preparation” (dated 2000).

Protein sequences, listed by entry. Tags and fused reporters are not part of them. Residues count along the entry.
UniProt H0W7K7, 1-460: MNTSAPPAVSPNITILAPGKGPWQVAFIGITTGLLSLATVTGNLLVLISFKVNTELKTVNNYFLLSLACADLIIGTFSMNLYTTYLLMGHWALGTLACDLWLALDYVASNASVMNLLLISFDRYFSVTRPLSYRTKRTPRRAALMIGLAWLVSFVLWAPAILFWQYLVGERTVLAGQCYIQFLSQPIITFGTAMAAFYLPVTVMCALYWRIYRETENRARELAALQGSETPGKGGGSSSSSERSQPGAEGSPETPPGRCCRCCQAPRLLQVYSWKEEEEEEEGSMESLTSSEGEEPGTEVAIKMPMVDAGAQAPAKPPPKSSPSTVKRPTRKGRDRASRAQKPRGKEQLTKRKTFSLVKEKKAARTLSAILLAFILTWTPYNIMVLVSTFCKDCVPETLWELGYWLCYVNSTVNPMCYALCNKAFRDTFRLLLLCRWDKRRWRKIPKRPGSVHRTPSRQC
UniProt H0W1Z3, 1-590: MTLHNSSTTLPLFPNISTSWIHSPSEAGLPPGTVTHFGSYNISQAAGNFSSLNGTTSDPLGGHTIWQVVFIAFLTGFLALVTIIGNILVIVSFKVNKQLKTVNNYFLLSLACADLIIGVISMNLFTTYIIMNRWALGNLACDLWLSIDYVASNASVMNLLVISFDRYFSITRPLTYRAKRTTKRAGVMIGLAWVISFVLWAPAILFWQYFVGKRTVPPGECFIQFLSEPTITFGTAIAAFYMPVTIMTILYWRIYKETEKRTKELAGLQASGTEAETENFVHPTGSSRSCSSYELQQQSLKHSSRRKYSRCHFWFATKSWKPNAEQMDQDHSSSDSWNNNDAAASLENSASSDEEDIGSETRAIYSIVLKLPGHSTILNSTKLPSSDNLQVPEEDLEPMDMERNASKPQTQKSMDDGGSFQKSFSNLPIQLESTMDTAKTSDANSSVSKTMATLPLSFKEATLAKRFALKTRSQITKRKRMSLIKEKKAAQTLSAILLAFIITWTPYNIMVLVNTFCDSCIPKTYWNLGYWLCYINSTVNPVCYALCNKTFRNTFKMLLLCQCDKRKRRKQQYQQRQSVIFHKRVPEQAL
UniProt H0VRN8, 1-466: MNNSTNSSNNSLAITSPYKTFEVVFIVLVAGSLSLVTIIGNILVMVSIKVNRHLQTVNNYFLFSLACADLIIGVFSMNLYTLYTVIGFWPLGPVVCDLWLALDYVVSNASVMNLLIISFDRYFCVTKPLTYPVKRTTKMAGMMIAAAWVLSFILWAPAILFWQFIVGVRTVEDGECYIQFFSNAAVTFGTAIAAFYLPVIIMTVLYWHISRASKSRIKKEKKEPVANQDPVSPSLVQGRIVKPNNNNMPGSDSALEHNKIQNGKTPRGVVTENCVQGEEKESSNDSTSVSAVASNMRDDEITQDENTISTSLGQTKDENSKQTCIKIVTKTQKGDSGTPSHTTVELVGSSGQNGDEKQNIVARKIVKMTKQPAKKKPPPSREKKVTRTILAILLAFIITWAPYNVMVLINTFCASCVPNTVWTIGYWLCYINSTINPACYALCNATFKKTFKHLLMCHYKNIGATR

The target in assay [1] is cortex (M1 receptor) (Cavia porcellus, UniProt H0W7K7). The assay can be described thus: Receptor binding assay, (-)3H-QNB competition, cerebral cortex (M1).
For assay [2], the target named is parotid (M3 receptor) (Cavia porcellus, UniProt H0W1Z3). As to the kind of experiment: Receptor binding assay, (-)3H-QNB competition, parotid gland (M3).
Assay [3] has as its target heart (M2 receptor) (Cavia porcellus, UniProt H0VRN8). As to the kind of experiment: Receptor binding assay, (-)3H-QNB competition, heart (M2).
The mark [4] stands for this setting: read-out: M1 (Ki), Table 2, (-)3H-QNB 2 nM.
Where [5] appears, read: read-out: M3 (Ki), Table 2, (-)3H-QNB 2 nM.
Setting [6] is: read-out: Ki M2, Table 1, (-)3H-QNB 2 nM.
Where [7] appears, read: read-out: Ki M1, Table 1, (-)3H-QNB 2 nM.
Setting [8] is: read-out: Ki M3, Table 1, (-)3H-QNB 2 nM.
Where [9] appears, read: read-out: M1 (Ki), Table 3, (-)3H-QNB 2 nM.
Setting [10] is: read-out: M3 (Ki), Table 3, (-)3H-QNB 2 nM.
Where [11] appears, read: read-out: M2 (Ki), Table 3, (-)3H-QNB 2 nM.
[12] abbreviates: read-out: M2 (Ki), Table 4, (-)3H-QNB 2 nM.
Where [13] appears, read: read-out: M2 (Ki), Table 2, (-)3H-QNB 2 nM.
Setting [14] is: read-out: M1 (Ki), Table 4, (-)3H-QNB 2 nM.
[15] abbreviates: read-out: M3 (Ki), Table 4, (-)3H-QNB 2 nM.

The structures appear in SMILES notation. Where two headings read alike, the source gives them in different places.

For the compound `COc1cccc(C2(C(=O)OC3CN4CCC3CC4)CCC2)c1` (centres unmarked), the Ki (as a rule, a dissociation constant, usually derived from enzyme kinetics or from competition with a known ligand) in assay [1] (setting [4]) worked out at 7.6 nM; in assay [2] (setting [5]), 38 nM.
Turning to `COC[C@@H]1C[C@]1(C(=O)OCCN(C(C)C)C(C)C)c1ccccc1` (relative stereo), the Ki in assay [3] (setting [6]) was found to be 160 nM; in assay [1] (setting [7]), 5.7 nM; in assay [2] (setting [8]), 99 nM.
For `O=C(OC1CN2CCC1CC2)C1(c2cccs2)CCCC1` (centres unmarked), the Ki in assay [1] (setting [9]) worked out at 0.3 nM; in assay [2] (setting [10]) it was 1.6 nM.
`CC(C)N(CCOC(=O)C1(c2ccccc2)CCCC1)C(C)C`: the Ki in assay [3] (setting [11]) worked out at 8.5 nM; in assay [1] (setting [9]), 3.6 nM; in assay [2] (setting [10]), 21 nM.
On to `COC[C@@H]1C[C@@]1(C(=O)OCCN(C(C)C)C(C)C)c1ccccc1` (relative stereo), for which the Ki in assay [3] (setting [6]) stood at 16 nM; in assay [1] (setting [7]), 4.3 nM; in assay [2] (setting [8]) it was 41 nM.
For `CC(C)N(CCOC(=O)[C@]1(c2ccccc2)C[C@H]1COCc1ccccc1)C(C)C` (relative stereo) the same measures were 50 nM, 10 nM and 160 nM.
Consider `O=C(OC1CN2CCC1CC2)C1(c2ccccc2)CCCCC1` (centres unmarked), for which the Ki in assay [3] (setting [12]) stood at 4.2 nM.
As for `CC(C)N(CCOC(=O)C1(c2ccsc2)CCC1)C(C)C`, the Ki in assay [3] (setting [13]) came out at 9.4 nM; in assay [1] (setting [4]) it was 3.3 nM; in assay [2] (setting [5]), 35 nM.
As for `CC(C)N(CCOC(=O)C1(c2ccccc2)CC(O)C1)C(C)C` (centres unmarked), the Ki was 160 nM in assay [3] (setting [13]), 74 nM in assay [1] (setting [4]) and greater than 500 nM in assay [2] (setting [5]).
With `CN1[C@@H]2CC[C@H]1C[C@@H](OC(=O)C1(c3ccccc3)CCC1)C2` (relative stereo), the Ki in assay [3] (setting [13]) was 26 nM; in assay [1] (setting [4]) it was 2.1 nM; in assay [2] (setting [5]) it was 5.2 nM.
For `CC(C)N(CCOC(=O)C1(c2ccccc2)CC(C)(C)C1)C(C)C` the same measures were 2.2 nM, 0.3 nM and 1.6 nM.
`O=C(OC1CN2CCC1CC2)C1(c2cccc([N+](=O)[O-])c2)CCC1` (centres unmarked): in assay [1] (setting [4]), the Ki was 21 nM.
`O=C(OC1CN2CCC1CC2)C1(c2ccccc2F)CCC1` (centres unmarked): the Ki in assay [1] (setting [4]) was determined as 0.3 nM; in assay [2] (setting [5]), 1.9 nM.
On to `CC1C(OC(=O)C2(c3ccccc3)CCC2)C2CCN1CC2` (centres unmarked), for which the Ki in assay [3] (setting [13]) was 5.3 nM.
`O=C(OC1CN2CCC1CC2)C1(c2ccsc2)CCCC1` (centres unmarked): the Ki was found to be 5.6 nM in assay [3] (setting [11]) and 1.6 nM in assay [2] (setting [10]).
On to `CN1[C@@H]2CC[C@H]1CC(OC(=O)C1(c3cccs3)CCCC1)C2` (some centres unmarked), for which the Ki in assay [3] (setting [11]) came to 21 nM; in assay [1] (setting [9]), 3.3 nM; in assay [2] (setting [10]), 10 nM.
As for `COc1ccc(C2(C(=O)OC3CN4CCC3CC4)CCC2)cc1` (centres unmarked), the figures for the Ki in assay [3] (setting [13]) and in assay [1] (setting [4]) were 181 nM and 14 nM, respectively.
As for `CN1CCCC(COC(=O)C2(c3ccccc3)CC(C)(C)C2)C1` (centres unmarked), the Ki in assay [3] (setting [13]) was 6.3 nM; in assay [1] (setting [4]), 0.5 nM; in assay [2] (setting [5]) it was 2.1 nM.
Taken in the same sequence, the figures for `CN1CCCCC1COC(=O)C1(c2ccccc2)CCC1` (centres unmarked) were 30 nM, 4.2 nM and 30 nM.
On to `O=C(OCC1CN2CCC1CC2)C1(c2ccccc2)CCC1` (centres unmarked), for which the figures for the Ki in assay [3] (setting [13]), in assay [1] (setting [4]) and in assay [2] (setting [5]) were 13 nM, 1.3 nM and 7.3 nM, respectively.
For the compound `CCN(CC)CCOC(=O)C1(c2cccs2)CCCC1`, the Ki in assay [3] (setting [11]) stood at 31 nM; in assay [1] (setting [9]), 3.2 nM; in assay [2] (setting [10]), 28 nM.
Regarding `O=C(OC1CN2CCC1CC2)C1(c2cccc3ccccc23)CCC1` (centres unmarked), the inhibition constant (Ki) in assay [3] (setting [13]) was 18 nM; in assay [1] (setting [4]), 3.6 nM.
Regarding `CCN(CC)CCOC(=O)C1(c2ccccc2)CC(C)(C)C1`, the values for the Ki in assay [3] (setting [13]), in assay [1] (setting [4]) and in assay [2] (setting [5]) were 3.9 nM, 0.4 nM and 1.5 nM, respectively.
For `CC(C)N(CCOC(=O)C1(c2ccccc2)CCC1)C(C)C` the same measures were 15 nM, 5.8 nM and 66 nM.
Turning to `CC(C)N(CCOC(=O)[C@]1(c2ccccc2)CC[C@H]1C)C(C)C` (relative stereo), the Ki in assay [3] (setting [13]) is 28 nM; in assay [1] (setting [4]) it was 18 nM; in assay [2] (setting [5]) it was 130 nM.
For `CCN(CC)CCCOC(=O)C1(c2ccccc2)CCC1` the same measures were 67 nM, 7 nM and 28 nM.
With `CCC1(CC)CC(C(=O)OCCN(C(C)C)C(C)C)(c2ccccc2)C1`, the Ki amounted to 9.2 nM in assay [3] (setting [13]), 1.7 nM in assay [1] (setting [4]) and 14 nM in assay [2] (setting [5]).
Take `CCN(CC)CCOC(=O)C1(c2ccsc2)CCCC1`: the Ki in assay [3] (setting [11]) was found to be 40 nM; in assay [1] (setting [9]) it was 3.7 nM; in assay [2] (setting [10]), 29 nM.
For `CN1CCCC(COC(=O)C2(c3ccccc3)CCC2)C1` (centres unmarked), the Ki stood at 61 nM in assay [3] (setting [13]), 6.4 nM in assay [1] (setting [4]) and 30 nM in assay [2] (setting [5]).
For `CC(C)N(CCOC(=O)C1(c2ccc([N+](=O)[O-])cc2)CCC1)C(C)C` the same measures were 83 nM, 32 nM and 374 nM.
Taken in the same sequence, the figures for `O=C(OCCN1CCCC1)C1(c2ccccc2)CCC1` were 89 nM, 14 nM and 53 nM.
Taken in the same sequence, the figures for `CC(C)N(CCOC(=O)C1(c2ccc3c(c2)OCO3)CCC1)C(C)C` were 5.2 nM, 13 nM and 54 nM.
For the compound `C=C1CC(C(=O)OCCN(C(C)C)C(C)C)(c2ccccc2)C1`, the Ki is 3.4 nM in assay [3] (setting [13]), 1.2 nM in assay [1] (setting [4]) and 6.3 nM in assay [2] (setting [5]).
Taken in the same sequence, the figures for `CC(C)N(CCOC(=O)C1(c2cccc(N)c2)CCC1)C(C)C` were 94 nM, 22 nM and 180 nM.
Consider `COC1CCC(C(=O)OCCN(C(C)C)C(C)C)(c2ccccc2)CC1` (centres unmarked), for which the Ki came to 55 nM in assay [3] (setting [12]), 39 nM in assay [1] (setting [14]) and 441 nM in assay [2] (setting [15]).
On to `CC(C)N(CCOC(=O)[C@]1(c2ccccc2)C[C@H]1CO)C(C)C` (relative stereo), for which the Ki was 520 nM in assay [3] (setting [6]), 69 nM in assay [1] (setting [7]) and 1200 nM in assay [2] (setting [8]).
Consider `CC(C)N(CCOC(=O)C1(c2ccccc2)CCC2(CC1)OCCO2)C(C)C`, for which the values for the inhibitory constant (Ki) in assay [3] (setting [12]), in assay [1] (setting [14]) and in assay [2] (setting [15]) were 37 nM, 15 nM and 199 nM, respectively.
`CCN(CC)CCOC(=O)C1(c2ccccc2)CCC1`: the Ki was determined as 30 nM in assay [3] (setting [13]), 4.2 nM in assay [1] (setting [4]) and 30 nM in assay [2] (setting [5]).
As for `CC1(C)CC(C(=O)OC2CN3CCC2CC3)(c2ccccc2)C1` (centres unmarked), the Ki in assay [2] (setting [5]) was determined as 0.3 nM.
In the case of `Cc1cccc(C2(C(=O)OC3CN4CCC3CC4)CCC2)c1` (centres unmarked), the Ki in assay [3] (setting [13]) is 8.6 nM; in assay [1] (setting [4]), 0.6 nM; in assay [2] (setting [5]), 2.3 nM.
Taken in the same sequence, the figures for `CN1CCC(OC(=O)C2(c3ccccc3)CCC2)CC1` were 3.3 nM, 0.5 nM and 2.2 nM.
Taken in the same sequence, the figures for `CC(C)N(CCOC(=O)[C@@]1(c2ccccc2)CC[C@H]1C)C(C)C` (relative stereo) were 68 nM, 25 nM and 210 nM.
Turning to `CN1CCC(OC(=O)C2(c3cccs3)CCCC2)CC1`, the Ki in assay [3] (setting [11]) came to 4.4 nM; in assay [1] (setting [9]), 1.1 nM; in assay [2] (setting [10]), 2.6 nM.
For `CN1CCCC(COC(=O)C2(c3cccs3)CCCC2)C1` (centres unmarked) the same measures were 34 nM, 6.2 nM and 29 nM.
Take `CC(C)N(CCOC(=O)C1(c2ccccc2)CC2(CCC2)C1)C(C)C`: the Ki in assay [3] (setting [13]) turned out to be 2.6 nM; in assay [1] (setting [4]), 0.3 nM; in assay [2] (setting [5]), 2 nM.
Taken in the same sequence, the figures for `CC(C)N(CCOC(=O)C1(c2ccc([N+](=O)[O-])cc2[N+](=O)[O-])CCC1)C(C)C` were 330 nM, 350 nM and 1100 nM.
For `CC(C)N(CCOC(=O)C1(c2cccc3ccccc23)CCC1)C(C)C` the same measures were 25 nM, 20 nM and 100 nM.
As for `CN1[C@@H]2CC[C@H]1C[C@@H](OC(=O)C(CO)c1ccccc1)C2` (some centres unmarked), the Ki in assay [1] (setting [7]) amounted to 0.3 nM.
As for `CC(C)N(CCOC(=O)C1(c2cccs2)CCCC1)C(C)C`, the Ki was found to be 14 nM in assay [3] (setting [11]), 2.7 nM in assay [1] (setting [9]) and 22 nM in assay [2] (setting [10]).
Regarding `CC(C)N(CCOC(=O)C1(c2ccccc2)CCCCC1)C(C)C`, the Ki came to 9.2 nM in assay [3] (setting [12]), 3.5 nM in assay [1] (setting [14]) and 29 nM in assay [2] (setting [15]).
With `CCN(CC)CCOC(=O)C1(c2ccccc2)CC(CC)(CC)C1`, the Ki in assay [1] (setting [4]) worked out at 27 nM.
For `COC1CCC(C(=O)OC2CN3CCC2CC3)(c2ccccc2)CC1` (centres unmarked), in assay [2] (setting [15]), the Ki came out at 9.3 nM.
Regarding `CC(C)N(CCOC(=O)C1(c2ccsc2)CCCC1)C(C)C`, the Ki in assay [3] (setting [11]) was 8.4 nM; in assay [1] (setting [9]), 3 nM; in assay [2] (setting [10]), 22 nM.
Turning to `O=C(OC1CN2CCC1CC2)C1(c2cccs2)CCC1` (centres unmarked), the Ki in assay [2] (setting [5]) came out at 2 nM.
